Source: patent US20240398893A1 (priority 2021, published 2024)

Test: peptide made by a vendor
Details: whole synthesis

Row | Substance | outcome
1 | DLGDISGINASVVNIQKEIDRLNEVAKNLNESLIDLQELGSGSGC(CH2CONH(PEG)4CH2COOChol)-NH2 | exhibited poor stability, and cannot be purified to give a high-purity sample
2 | DLGDISGINASVVNIQKEIDRLNEVAKNLNESLIDLQELGSGSGC(CH2COOChol)-NH2 | exhibited poor stability, and cannot be purified to give a high-purity sample
